From patent publication US6544521B2, “Immunoreactive peptide CTL epitopes of human cytomegalovirus pp150” (City of Hope, priority 2000, dated 2003)
No dose or concentration is given here for some results.

Test system: pp150-specific T cell clones
Assay: Chromium release assay with peptide-sensitized EBVLCL and pp150-specific CTL clones (epitope mapping)
Type: cell-based, human
Conditions: minimal cytotoxic epitope naturally processed from HCMV pp150

QTVTSTPVQGR (listed as Human cytomegalovirus) [SEQ ID NO: 2]
HLA Allele Restriction Element: HLA A*6801/2

TTVYPPSSTAK (listed as Human cytomegalovirus) [SEQ ID NO: 1]
HLA Allele Restriction Element: HLA A*0301
